The values that follow come from patent publication US20260232713A1, “PLECOMACROLIDE DERIVATIVES FOR MHC-I NEF DOWNMODULATION” (priority 2022, published 2026).

In this assay the target is HIV-Nef (Human immunodeficiency virus type 1, UniProt P03406). The assay is described as follows: Inhibition of HIV-Nef downmodulation of MHC-I HLA-A2 on the surface of HIV ΔGPE infected primary CD4+ T cells (flow cytometry). The class given is cell-based. The note with it: HLA-A2 surface expression, 24 hours after treatment.

pIC50: −log10 of the molar value.

On to “Des-tylactone [Compound S47, reference compound]”, for which the pIC50 is below 6.00.

“23-OH-tylactone [Compound S46, reference compound]”: the pIC50 is below 6.00.

For orientation: pIC50 means the negative decadic logarithm of the IC50, by convention in mol/L. A lower pIC50 goes with a large IC50.
